Reference: patent US20220380829A1, “Method of Diagonosizing Pathogens and their Antimicrobial Susceptibility” (HANGZHOU DIAN MEDICAL LABORATORY CO., LTD., priority 2019, published 2022)

What follows are substances tested on Staphylococcus aureus (assay: WGS genomic phylogenetic tree and resistance determinant susceptibility prediction). Details: 22 blinds; present method compared with VITEK2 AST.

Substance	Negative predictive value (NPV)	Specificity
penicillin	100.00%	100.00%
Teicoplanin	100.00%	100.00%
Gentamicin	100.00%	100.00%
